Measured values from several laboratories, pooled; numbers as filed in NIAID ChemDB.

Shared fields: toxicity to cultured cells; cell line: MT-4; endpoint: CC50

CCn: concentration that lowers growth or viability of the cells by n%. Rows are shuffled and stem from different studies.

| compound | result |
|---|---|
| Cc1c(Cc2ccc(C#N)cc2)nc(SCc2ccc([N+](=O)[O-])cc2)[nH]c1=O | 26.43 µM |
| CCC(C)Oc1cc(=O)[nH]c(S(=O)(=O)c2cc(C)cc(C)c2)n1 | 119 µM |
| Cc1c(Cc2c(F)cccc2F)nc(SCC(=O)c2ccc(Cl)cc2)[nH]c1=O | >59.52 µM |
| CC1(C)S[C@H]([C@H](NC(=O)Cc2ccccc2)C(=O)NCC(=O)O)N[C@H]1C(=O)NCCNC(=O)[C@@H]1N[C@@H]([C@H](NC(=O)Cc2ccccc2)C(=O)NCC(=O)O)SC1(C)C | >100 µM |
| CC(=O)O[C@@]12[C@H](O)[C@@H](C)[C@]3(O)[C@@H]4C=C(C)C(=O)[C@@H]4CC(CO)=C[C@H]3[C@@H]1C2(C)C | >1000 µg/mL |
| CCNC(=O)[C@@H](NC(=O)CC(C)C)[C@@H]1N[C@@H](C(=O)NCCNC(=O)[C@@H]2N[C@@H]([C@H](NC(=O)CC(C)C)C(=O)NCC)SC2(C)C)C(C)(C)S1 | >100 µM |
| CCC(C)Oc1nc(N)cc(Sc2cc(C)cc(C)c2)n1 | 117 µM |
| CCNC(=O)[C@@H](NC(=O)/C=C\c1ccccc1)[C@@H]1N[C@@H](C(=O)NCCNC(=O)[C@@H]2N[C@@H]([C@H](NC(=O)/C=C\c3ccccc3)C(=O)NCC)SC2(C)C)C(C)(C)S1 | >100 µM |
| CCc1c(C(C)c2c(F)cccc2F)nc(SCCOCc2ccc(OC)cc2)[nH]c1=O | >54.35 µM |
| CC1(C)S[C@H]([C@H](NC(=O)Cc2ccccc2)C(N)=O)N[C@H]1C(=O)NCCNC(=O)[C@@H]1N[C@@H]([C@H](NC(=O)Cc2ccccc2)C(N)=O)SC1(C)C | >100 µM |
| COc1ccc(/C=C/CSc2nc(Cc3c(Cl)cccc3Cl)c(C)c(=O)[nH]2)cc1 | 0.96 µM |
| COc1cc2c(c(OC)c1CC=C(C)C)C[C@H](c1ccc(O)c(CC=C(C)C)c1O)CO2 | 47 µg/mL |
| CCCCCCCCCC(=O)O[C@@H]1[C@@H](C)[C@@]2(O)[C@@H](C=C(COC(C)=O)C[C@@]3(O)C(=O)C(C)=C[C@@H]23)[C@@H]2C(C)(C)[C@]12OC(C)=O | >500 µg/mL |
| CC(C)=CCc1c(O)ccc(C2COc3cc(O)c(CC=C(C)C)c(O)c3C2=O)c1O | 46 µg/mL |
| CCCCCCCCCCCC(=O)O[C@@]12[C@H](OC(=O)C(C)CC)[C@@H](C)[C@@]3(O)[C@@H](C=C(CO)C[C@]4(O)C(=O)C(C)=C[C@@H]34)[C@@H]1C2(C)C | >62.5 µg/mL |
| CN(C)c1ccc(CNC(=O)[C@@H](NC(=O)c2ccccc2-c2ccccc2)[C@@H]2N[C@@H](C(=O)NCCNC(=O)[C@@H]3N[C@@H]([C@H](NC(=O)c4ccccc4-c4ccccc4)C(=O)NCc4ccc(N(C)C)cc4)SC3(C)C)C(C)(C)S2)cc1 | >100 µM |
| CCC(C)Oc1nc(Sc2cc(C)cc(C)c2)cc(=O)[nH]1 | 115 µM |
| CCNC(=O)[C@@H](NS(=O)(=O)Cc1ccccc1)[C@@H]1N[C@@H](C(=O)NCCNC(=O)[C@@H]2N[C@@H]([C@H](NS(=O)(=O)Cc3ccccc3)C(=O)NCC)SC2(C)C)C(C)(C)S1 | >100 µM |
| CCC(C)Oc1cc(N)nc(Sc2ccc(Cl)cc2)n1 | 106 µM |
| CCc1c(Cc2c(Cl)cccc2Cl)nc(SCc2ccc(OC)cc2)[nH]c1=O | >57.47 µM |
| CCC(C)Oc1cc(N)nc(S(=O)(=O)c2ccccc2)n1 | 90 µM |
| CCc1c(Cc2c(Cl)cccc2Cl)nc(SCCc2ccc(OC)cc2)[nH]c1=O | >11.13 µM |
| CCC(C)Oc1cc(N)nc(Sc2ccc(C)cc2)n1 | 300 µM |
| COc1ccc(Oc2coc3cc(OC)c(CC=C(C)C)c(O)c3c2=O)c(OC)c1 | >100 µg/mL |
| CCC(C)Oc1nc(Sc2cccc(C)c2)cc(=O)[nH]1 | >200 µM |
| CC(C)=CCc1cc(-c2cc(=O)c3c(O)c(CC=C(C)C)c(O)cc3o2)ccc1O | 6 µg/mL |
| CCC(C)Oc1nc(N)cc(Sc2ccccc2)n1 | 80 µM |
| CCCCCCCCCC(=O)O[C@@H]1[C@@H](C)[C@@]2(O)C(C=C(CO)C[C@]3(O)C(=O)C(C)=CC23)C2C(C)(C)[C@@]21OC(=O)C(C)CC | >31.3 µg/mL |